One data set concerns BxPC-3 tumors. The data set is described as follows: Therapy studies in BxPC-3 tumor-bearing mice. As to conditions: for mice with significant weight loss of greater than 20% of body weight: n = 8. Type of data set: in vivo, athymic nude mice. The protocol:
Therapy studies were conducted in athymic nude mice bearing BxPC-3 tumors when the tumor volume reached about 100 mm^3. […] Tumor volumes and body weights were monitored three times a week. Individual tumor size was calculated using the formula (length × width × width)/2. The mice were euthanized when the tumor reached 1500 mm^3, ulceration of >4 mm was present, or significant stress due to weight loss. […] The doses were administered via tail vein and tumor size and mouse weights were recorded three times a week. Tumor volumes were plotted versus time to determine tumor growth inhibition.

Data set [1] deals with BxPC-3 tumors and normal organs. Kind of data set: H&E and Ki-67 immunohistochemical staining of tissues of treated mice. Type of data set: in vivo. As to conditions: 37 MBq per mouse.
Data set [2] can be described thus: Biodistribution in normal CD-1 mice. As to conditions: mouse, iv, total radioactivity, 0.37 MBq i.v., n = 4–5, mean ± SD. The format is in vivo. As to the method: The comparison of non-albumin binding and albumin binding peptides were evaluated in CD-1 mice at 1, 4, 24, and 48 h. ^177Lu-labeled peptides were prepared at the specific activity of 10 MBq/nmol. Mice (n = 4–5) were intravenously injected with 0.37 MBq (10 µCi) of respective radioligands diluted in 100 μL saline and sacrificed at specified time points. Selected organs were collected, weighed, and counted for activity. The results were reported as the percentage of the injected radioactivity per gram of tissue mass (% ID/g) and the radioactivity was calibrated using a known standard.

Data set [3] can be described thus: Biodistribution in mice bearing BxPC-3 tumor xenografts. Type of data set: in vivo. As to conditions: athymic nude, mouse, iv, total radioactivity, BxPC-3 tumor mice, 0.37 MBq i.v.; for tissue uptake at 48 h: 48 h p.i. The protocol:
Animals were supplied from Charles River Laboratories (Wilmington, MA, USA), and were handled in compliance with the Guidelines for Care and Use of Research Animals established by the Division of Comparative Medicine and the Animal Studies Committee of Washington University School of Medicine. Biodistribution studies were conducted in athymic nude mice bearing subcutaneous BxPC-3 tumors. Tumors were implanted on the right flank with 5 × 10^6 cells about 4 weeks before the performance of the experiments. Biodistribution studies were performed when the tumors reached approximately 5–7 mm in diameter. […] Tissues of interest (blood, lung, liver, spleen, kidney, muscle, heart, bone, and tumor) were collected and weighed, and the radioactivity was measured using a gamma counter. The results were expressed as the percentage of injected dose per gram of tissue (%ID/g).

[4] abbreviates: blood, n = 4–5, mean ± SD, read-out: blood uptake.
The mark [5] stands for this setting: n = 4–5, mean ± SD, read-out: tumor uptake.

Where two headings read alike, the source gives them in different places.

As for `CC(C)C[C@H](NC(=O)[C@H](CC(=O)O)NC(=O)CNC(=O)[C@H](CCCNC(=N)N)NC(=O)[C@H](CC(C)C)NC(=O)[C@H](CC(N)=O)NC(=O)[C@@H]1CCCN1C(=O)[C@@H](NC(=O)[C@H](C)NC(=O)[C@H](CC(N)=O)NC(=O)CCOCCOCCOCCOCCOCCOCCOCCOCCOCCOCCOCCOCCOCCOCCOCCOCCOCCOCCOCCOCCOCCOCCOCCOCCOCCOCCOCCOCCNC(=O)[C@H](CCCCNC(=O)CCCc1ccc(I)cc1)NC(=O)CN1CCN(CC(=O)O)CCN(CC(=O)O)CCN(CC(=O)O)CC1)C(C)C)C(=O)N[C@@H](CCC(N)=O)C(=O)N[C@H](C(=O)N[C@@H](CC(C)C)C(=O)N[C@@H](C)C(=O)N[C@@H](CCC(N)=O)C(=O)N[C@@H](CCCCN)C(=O)N[C@H](C(=O)N[C@@H](C)C(=O)N[C@@H](CCCNC(=N)N)C(=O)N[C@H](C(=O)NCCOCCOCCOCCOCCOCCOCCOCCOCCOCCOCCOCCOCCOCCOCCOCCOCCOCCOCCOCCOCCOCCOCCOCCOCCOCCOCCOCCOCCC(N)=O)[C@@H](C)O)C(C)C)C(C)C` [[^177Lu]Lu-IBA-DOTA-(PEG28)2-A20FMDV2, metal not drawn], the % intact in human serum was greater than 90%. Further, in the data set on BxPC-3 tumors (18.5 MBq), the “mice with significant weight loss of greater than 20% of body weight” value is on record as “One mouse”. For the same molecule, the “tumor inhibition in comparison to control group” value with BxPC-3 tumors (18.5 MBq, n = 8, until day 23, p < 0.01) is recorded as “effective tumor inhibition”. The “mice with significant weight loss of greater than 20% of body weight” value with BxPC-3 tumors (27.8 MBq) is 4 out of 8. Further, the “tumor inhibition in comparison to control group” value with BxPC-3 tumors (27.8 MBq, n = 8, until day 23 (p < 0.001 for the IBA peptide)) is on record as “effective tumor inhibition”. The body weight change result with BxPC-3 tumors (single dose of 37 MBq) was “significant weight loss, but not as severe”. Also, in the data set with BxPC-3 tumors (single dose of 37 MBq, BxPC-3 tumor-bearing mice, n = 8, p < 0.001), the “tumor volumes in comparison to the control group” value is listed as “significantly reduced”. In addition, the “kidney histology (H&E)” value in data set [1] (n = 4) was “kidney injury”. Besides, the “histology of heart, lung, liver and spleen sections (H&E)” value in data set [1] (n = 4, data not shown) is recorded as “Injury was not observed”. In data set [1] (n = 4, mean ± SD, control group 51.39 ± 5.56%, p = 0.0044), the “Ki-67 expression in tumor tissues” value worked out at 34.51 ± 5.24%. In data set [2] (blood, read-out: blood uptake), the tissue uptake at 1 h was determined as 4.7 ± 0.68 %ID/g. The tissue uptake at 48 h in data set [2] (blood, 48 h p.i., read-out: blood uptake) is 0.09 ± 0.02 %ID/g. Also, the tissue uptake at 1 h in data set [2] (kidney, read-out: kidney uptake) was found to be 93.4 ± 13.5 %ID/g. For the same molecule, the tissue uptake at 48 h in data set [2] (kidney, 48 h, read-out: kidney uptake) amounted to 25 ± 1.92 %ID/g. The tissue uptake at 1 h in data set [3] (blood, 1 h p.i., n = 4–5, mean ± SD) came to 5.43 ± 0.71 %ID/g. Moreover, in data set [3] (setting [4]), the tissue uptake at 4 h is 1.06 ± 0.07 %ID/g and the tissue uptake at 48 h amounted to 0.04 ± 0.01 %ID/g. In addition, in data set [3] (setting [5]), the tissue uptake at 4 h was found to be 5.14 ± 0.92 %ID/g and the tissue uptake at 48 h is 4.06 ± 0.54 %ID/g. Also, the tissue uptake at 4 h in data set [3] (kidney, n = 4–5, mean ± SD, read-out: kidney uptake) turned out to be 119 ± 24.5 %ID/g. The tissue uptake in data set [3] (lung, liver, spleen, muscle, heart, bone, all time points (1, 4, 24, 48 h), read-out: uptake in normal organs such as lung, liver, spleen, muscle, heart, and bone) was less than 4 %ID/g.

For the origin of these results see publication PMC8876964 (Pharmaceuticals, 2022).
